Results reported in paper PMC9249791, “Molecular dissection of the glutamine synthetase-GlnR nitrogen regulatory circuitry in Gram-positive bacteria” (Nature Communications, 2022).

Key:
Sa GlnR(1-87)K48H = Sa GlnR(1-87)K48H (UniProt Q53687); experiment: fluorescence polarization; details: 5 mM Mg2+; FP: 25 mM Tris pH 7.5, 100 mM NaCl, 5 mM MgCl2, 1 nM fluoresceinated DNA; temperature not stated; recombinant protein; residues 1-87
Sa GlnR(1-87)K48R = Sa GlnR(1-87)K48R (UniProt Q53687); experiment: fluorescence polarization; details: 5 mM Mg2+; FP: 25 mM Tris pH 7.5, 100 mM NaCl, 5 mM MgCl2, 1 nM fluoresceinated DNA; temperature not stated; recombinant protein; residues 1-87

Sequence: CGTGTCAGATAATCTGACACG (double strand) [21-mer glnR operator, fluoresceinated]
- Kd (Sa GlnR(1-87)K48H): 11.6 nM
- Kd (Sa GlnR(1-87)K48R): 8 nM

Construct, isoform or probe ends are uncertain for at least one entry.
